Anti-infective test results gathered from many reports (values: NIAID ChemDB through PubChem).

All rows: whole-cell or culture tests; agent: Human cytomegalovirus; read by: cytopathic effect; read-out: EC50

Rows are shuffled and stem from different studies.

compound | strain | cells | result
N#CC1C(c2ccccc2)Nc2ccccc2S1(=O)=O | AD169 | HEL | 28 µg/mL
Nc1ncnc2c1ncn2CCCC(O)CF | AD169 | HEL | >50 µg/mL
N#CC1=C(c2ccccc2)Nc2sccc2S1(=O)=O | AD169 | HEL | >50 µg/mL
Cc1ccn2c(CSCc3ccccc3)c(C(C)(C)C)nc2c1 | DAVIS | HEL | 1.2 µg/mL
CO[C@H](CO)[C@@H](O)CCn1cnc2c(N)ncnc21 | DAVIS | HEL | >400 µg/mL
Nc1nc2ncn(/C=C3/C(F)C3(CO)CO)c2c(=O)[nH]1 | TOWNE | HFF | >100 µM
CCCCC#Cc1cn(S(=O)(=O)c2ccc(C)cc2)c(=O)[nH]c1=O | AD169 | HEL | >16 µM
Nc1ccn(CC[C@H](O)CCO)c(=O)n1 | DAVIS | HEL | >400 µg/mL
CCCCCCCCc1cc2cnc(=O)[nH]c2o1 | AD169 | HEL | >400 µM
Nc1ncnc2c1ncn2CC[C@H](O)CCO | AD169 | HEL | >400 µg/mL
OC[C@H]1O[C@@H](c2cc(Br)c(F)cc2F)C[C@@H]1O | DAVIS | HEL | >200 µM
Cc1ccn2c(CSCc3ccccc3)c(C34CC5CC(CC(C5)C3)C4)nc2c1 | DAVIS | HEL | >0.5 µg/mL
Cc1cc([C@H]2C[C@H](O)[C@@H](CO)O2)c(F)cc1F | AD169 | HEL | >200 µM
Nc1ncnc2c1ncn2C(CF)CCCO | DAVIS | HEL | >50 µg/mL
N#CC1C(c2ccc(Cl)cc2)Nc2sccc2S1(=O)=O | AD169 | HEL | 7 µg/mL
CO[C@H](CO)[C@@H](O)CCn1ccc(N)nc1=O | DAVIS | HEL | >400 µg/mL
Nc1nc2c(ncn2COC(CO)CO)c(=O)[nH]1 | AD169 | HFF | 1.8 µM
Cc1cccn2c(CSCc3ccccc3)cnc12 | DAVIS | HEL | 0.12 µg/mL
CCCCCCCC#Cc1cn(S(=O)(=O)c2ccc(C)cc2)c(=O)[nH]c1=O | AD169 | HEL | >80 µM
Cc1cc(Br)cn2c(CSCc3ccccc3)cnc12 | DAVIS | HEL | >20 µg/mL
Nc1nccc2c1ncn2[C@@H]1C[C@H](CO)[C@@H](O)[C@H]1O | DAVIS | HEL | 7 µg/mL
Cc1nc2ccccn2c1NC(=O)Nc1ccccc1 | DAVIS | HEL | 33 µg/mL
O=c1[nH]c(=O)n([C@H]2C[C@H](O)[C@@H](CO)O2)cc1/C=C/Br | AD169 | HEL | >50 µM
Cc1cc([C@H]2C[C@H](O)[C@@H](CO)O2)c(Cl)cc1F | AD169 | HEL | >200 µM
Cc1ccn2c(CSCc3ccccc3)c(-c3ccco3)nc2c1 | DAVIS | HEL | >50 µg/mL
OC[C@H]1O[C@H](c2cc(Br)c(F)cc2F)C[C@@H]1O | DAVIS | HEL | >200 µM
CC(C)(C)c1nc2ccccn2c1NC(=S)Nc1ccccc1 | DAVIS | HEL | 27 µg/mL
OC[C@H]1O[C@H](c2cc(F)c(F)cc2F)C[C@@H]1O | DAVIS | HEL | >200 µM
Nc1nc2c(ncn2/C=C2/CC2(CO)CO)c(=O)[nH]1 | AD169 | HFF | >0.49 µM
CCCCCCCC/C=C/CCCCCCCC(=O)OCC(CO)OCn1cnc2c(=O)[nH]c(N)nc21 | DAVIS | HEL | 3.5 µM
Cc1ccn2c(CSCc3ccccc3)c(C(F)(F)F)nc2c1 | DAVIS | HEL | 1.5 µg/mL
OC[C@H]1O[C@@H](c2cc(I)c(F)cc2F)C[C@@H]1O | AD169 | HEL | >200 µM
Nc1nc2c(ncn2CCCC(O)CF)c(=O)[nH]1 | DAVIS | HEL | >50 µg/mL
CCCCC#Cc1c[nH]c(=O)[nH]c1=O | DAVIS | HEL | >400 µM
Cc1cc([C@H]2C[C@H](O)[C@@H](CO)O2)c(F)cc1Cl | AD169 | HEL | >200 µM
N#CC1C(c2ccccc2)Nc2sccc2S1(=O)=O | AD169 | HEL | 50 µg/mL
CCCCCC#Cc1c[nH]c(=O)[nH]c1=O | AD169 | HEL | >400 µM
Cc1ccn2c(CSCc3ccccc3)cnc2c1 | DAVIS | HEL | 3.5 µg/mL
CCCCCCCCCCC#Cc1cn(S(=O)(=O)c2ccc(C)cc2)c(=O)[nH]c1=O | AD169 | HEL | >80 µM
OC[C@H]1O[C@@H](c2ccc(F)cc2F)C[C@@H]1O | DAVIS | HEL | >200 µM
Nc1ccn(C[C@@H](CO)OCP(=O)(O)O)c(=O)n1 | DAVIS | HEL | 0.21 µM
CCCCCCC#Cc1cn(S(=O)(=O)c2ccc(C)cc2)c(=O)[nH]c1=O | AD169 | HEL | >16 µM

For reference, 5 entries again:

compound | strain | cells | result
CCCCCCC#Cc1cn(S(=O)(=O)c2ccc(C)cc2)c(=O)[nH]c1=O | AD169 | HEL | >16 µM
N#CC1=C(c2ccccc2)Nc2sccc2S1(=O)=O | AD169 | HEL | >50 µg/mL
N#CC1C(c2ccc(Cl)cc2)Nc2sccc2S1(=O)=O | AD169 | HEL | 7 µg/mL
OC[C@H]1O[C@@H](c2ccc(F)cc2F)C[C@@H]1O | DAVIS | HEL | >200 µM
Nc1nccc2c1ncn2[C@@H]1C[C@H](CO)[C@@H](O)[C@H]1O | DAVIS | HEL | 7 µg/mL

ECn: concentration that inhibits the pathogen or its effect by n%.